Share of PSTVd loop 6 variants by leaf site

Reference: Wu et al. 2024, doi:10.1371/journal.ppat.1012142.

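A pool of all variants was put on leaves of three Nicotiana benthamiana plants. Samples came from the inoculated region at 5 days, the leaf margin at 10 and upper systemic leaves at 12.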

The pool varies loop 6 of the PSTVd intermediate strain in the pattern UNNNCGNNNG; wild type is UGACCGCGAG (upper and lower strand joined, each 5' to 3', the first 5 letters being the upper strand, closing pairs included).

Values are reads per thousand in the sample; higher means more abundant, 0 means not found.
Each value is the mean of three plants.
"Pool" is the share in the plasmid pool used as inoculum, on the same scale.
The inoculated region was read from the minus strand, the other sites from the plus strand.
IR is the inoculated region, LM the leaf margin, Sys the systemic leaves.

sequence | pool | IR | LM | Sys
UAAACGGCAG | 0.118 | 0.631 | 0.0704 | 0
UAAACGGCCG | 0.131 | 0.715 | 0.0868 | 0.0202
UAAGCGCAGG | 0.209 | 0.0415 | 0 | 0
UAAUCGCCAG | 0.261 | 0.0591 | 0 | 0
UACGCGAUAG | 0.196 | 0.108 | 0.110 | 0
UACGCGGCUG | 0.183 | 0.0836 | 0.0169 | 0
UACUCGAAAG | 0.131 | 0.114 | 0 | 0
UACUCGAGCG | 0.222 | 0.107 | 0 | 0
UACUCGAUCG | 0.183 | 0.0420 | 0 | 0
UACUCGCAAG | 0.118 | 0.162 | 0.00773 | 0
UAGACGCACG | 0.170 | 0.0953 | 0.00773 | 0.00684
UAGCCGCUGG | 0.170 | 0.107 | 0.0276 | 0
UAGUCGGAAG | 0.105 | 0.107 | 0.0184 | 0
UAUUCGGAGG | 0.183 | 0.0593 | 0 | 0
UCAACGAAUG | 0.183 | 0.0604 | 0.00920 | 0
UCAGCGUGUG | 0.209 | 0.102 | 0.00773 | 0
UCAUCGUAGG | 0.196 | 0.0652 | 0.00773 | 0
UCCACGGGCG | 0.118 | 0.0652 | 0.00773 | 0
UCCGCGGAGG | 0.183 | 0.0721 | 0 | 0
UCCUCGGUUG | 0.275 | 0.0775 | 0.00773 | 0
UCCUCGUCAG | 0.248 | 0.0603 | 0.0184 | 0
UCGUCGCAAG | 0.0654 | 0.162 | 0.0155 | 0
UCUCCGUCUG | 0.288 | 0.0840 | 0.00773 | 0
UCUGCGAGGG | 0.248 | 0.0540 | 0 | 0
UGAACGGACG | 0.157 | 0.661 | 0.156 | 0
UGAACGUAGG | 0.118 | 0.113 | 0.0169 | 0
UGAGCGAGUG | 0.235 | 0.107 | 0 | 0
UGAUCGUCAG | 0.314 | 0.0535 | 0 | 0.00684
UGAUCGUGGG | 0.248 | 0.0824 | 0 | 0.00599
UGCACGACGG | 0.196 | 0.119 | 0.00920 | 0
UGCACGGGAG | 0.314 | 0.779 | 0.0762 | 0
UGCACGUGUG | 0.235 | 0.0768 | 0 | 0
UGCUCGAGAG | 0.157 | 0.149 | 0.00920 | 0
UGGACGACAG | 0.222 | 0.0945 | 0 | 0
UGGACGGGGG | 0.157 | 0.0894 | 0.00920 | 0
UGGUCGGGUG | 0.170 | 0.0836 | 0 | 0
UGUUCGGAUG | 0.261 | 0.0946 | 0.0184 | 0.0196
UGUUCGGGUG | 0.301 | 0.606 | 0.111 | 0
UUAGCGGCAG | 0.118 | 0.600 | 0.0774 | 0
UUCACGAUGG | 0.314 | 0.0840 | 0 | 0
UUCGCGACUG | 0.222 | 0.101 | 0 | 0
UUGCCGGGUU | 0.0131 | 0 | 0 | 0
UUGUCGCAAG | 0.144 | 0.174 | 0 | 0
UUGUCGGUGG | 0.445 | 0.0835 | 0.0252 | 0
UUGUCGUGGG | 0.327 | 0.101 | 0 | 0
UUUCCGACAG | 0.196 | 0.0898 | 0.0387 | 0
UUUGCGGUCG | 0.196 | 0.131 | 0 | 0

Extract of 7 entries:

* UGGACGACAG (pool 0.222): IR 0.0945; LM 0; Sys 0
* UAAGCGCAGG (pool 0.209): IR 0.0415; LM 0; Sys 0
* UUCGCGACUG (pool 0.222): IR 0.101; LM 0; Sys 0
* UAGCCGCUGG (pool 0.170): IR 0.107; LM 0.0276; Sys 0
* UGUUCGGGUG (pool 0.301): IR 0.606; LM 0.111; Sys 0
* UCCGCGGAGG (pool 0.183): IR 0.0721; LM 0; Sys 0
* UGAUCGUCAG (pool 0.314): IR 0.0535; LM 0; Sys 0.00684

For reference, wild type rose from 20.7 per thousand in the pool to 195, 198, 203 (inoculated region), 629, 591, 734 (leaf margin) and 942, 870, 868 (systemic leaves).
With 36,220-57,551 reads a sample, very low values are single reads.
The authors trace changes outside the varied positions to PCR and sequencing errors or to mutation in the plant; presence does not show that a variant is infectious alone.